{"source": "PubChem BioAssay AID1259414 (Drosophila RNAi Screening Center, 2018)", "assay": "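Genome-wide screen for host control of endosymbiont load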 (primary screen)", "cells": "Drosophila JW18 cells infected with Wolbachia", "reagent": "long dsRNA against Drosophila genes, 0.25 µg dsRNA per well of a 384-well plate", "duration": "5 days", "challenge": "cells persistently infected with Wolbachia before knock-down; no added drug", "detection": "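Automated imaging of bacterial rRNA staining divided by host cell count, reported as plate-normalised robust z-score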", "reading the numbers": "Wolbachia per cell robust z: higher = more Wolbachia per host cell than the plate typical", "call rule": "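Active if absolute robust z reaches 1.5 in two or more of three replicates, leaving out multi- or no-target dsRNAs, genes unexpressed in JW18 and A1 wells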", "note": "The deposit covers about 24,000 reagents; this is a random part of those with a known target gene and a result. Of all reagents, about 1,210 (5%) got an active call. 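Inactive calls also include excluded dsRNAs with several or no targets, genes unexpressed in JW18, and well A1, regardless of score.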 Unmarked entries are inactive. No sequences are given here."}
The opening 2 entries as a preview:
{"gene knocked down": "CG5339", "amplicon": "DRSC04496", "Wolbachia per cell robust z, rep 1": 1.07, "Wolbachia per cell robust z, rep 2": 0.235, "Wolbachia per cell robust z, rep 3": 0.57}
{"gene knocked down": "Acsx1L (Acyl-CoA synthetase X1 L)", "amplicon": "DRSC16014", "Wolbachia per cell robust z, rep 1": -1.67, "Wolbachia per cell robust z, rep 2": 0.455, "Wolbachia per cell robust z, rep 3": 0.474}

Main list, from the start:
{"gene knocked down": "CG5339", "amplicon": "DRSC04496", "Wolbachia per cell robust z, rep 1": 1.07, "Wolbachia per cell robust z, rep 2": 0.235, "Wolbachia per cell robust z, rep 3": 0.57}
{"gene knocked down": "Acsx1L (Acyl-CoA synthetase X1 L)", "amplicon": "DRSC16014", "Wolbachia per cell robust z, rep 1": -1.67, "Wolbachia per cell robust z, rep 2": 0.455, "Wolbachia per cell robust z, rep 3": 0.474}
{"gene knocked down": "Acsx1L (Acyl-CoA synthetase X1 L)", "amplicon": "DRSC25334", "Wolbachia per cell robust z, rep 1": -1.21, "Wolbachia per cell robust z, rep 2": 0.622, "Wolbachia per cell robust z, rep 3": -0.407}
{"gene knocked down": "CG6675", "amplicon": "DRSC03735", "Wolbachia per cell robust z, rep 1": 0.0351, "Wolbachia per cell robust z, rep 2": 0.00155, "Wolbachia per cell robust z, rep 3": -0.65}
{"gene knocked down": "Pgls (6-phosphogluconolactonase)", "amplicon": "DRSC19769", "Wolbachia per cell robust z, rep 1": 0.57, "Wolbachia per cell robust z, rep 2": 0.537, "Wolbachia per cell robust z, rep 3": -1.94}
{"gene knocked down": "spab (space blanket)", "amplicon": "DRSC07112", "Wolbachia per cell robust z, rep 1": -0.993, "Wolbachia per cell robust z, rep 2": -4.51, "Wolbachia per cell robust z, rep 3": -0.27}
{"gene knocked down": "ATPCL (ATP citrate lyase)", "amplicon": "DRSC05913", "Wolbachia per cell robust z, rep 1": -0.373, "Wolbachia per cell robust z, rep 2": 0.958, "Wolbachia per cell robust z, rep 3": 0.868}
{"gene knocked down": "ATPCL (ATP citrate lyase)", "amplicon": "DRSC27809", "Wolbachia per cell robust z, rep 1": -1.64, "Wolbachia per cell robust z, rep 2": 0.00684, "Wolbachia per cell robust z, rep 3": -0.208}
{"gene knocked down": "CG6340", "amplicon": "DRSC19987", "Wolbachia per cell robust z, rep 1": 0.459, "Wolbachia per cell robust z, rep 2": 1.15, "Wolbachia per cell robust z, rep 3": 0.115}
{"gene knocked down": "CG6340", "amplicon": "DRSC25288", "Wolbachia per cell robust z, rep 1": "-3.32 (active)", "Wolbachia per cell robust z, rep 2": -1.99, "Wolbachia per cell robust z, rep 3": -1.82}
{"gene knocked down": "CG14408", "amplicon": "DRSC23396", "Wolbachia per cell robust z, rep 1": 0.77, "Wolbachia per cell robust z, rep 2": 1.43, "Wolbachia per cell robust z, rep 3": -10.6}
{"gene knocked down": "Osi3 (Osiris 3)", "amplicon": "DRSC12175", "Wolbachia per cell robust z, rep 1": -3.33, "Wolbachia per cell robust z, rep 2": -3, "Wolbachia per cell robust z, rep 3": 0.723}
{"gene knocked down": "niki (nimA-like kinase)", "amplicon": "DRSC14285", "Wolbachia per cell robust z, rep 1": 0.127, "Wolbachia per cell robust z, rep 2": -1.84, "Wolbachia per cell robust z, rep 3": -0.692}
{"gene knocked down": "CG32037", "amplicon": "DRSC10363", "Wolbachia per cell robust z, rep 1": 1.36, "Wolbachia per cell robust z, rep 2": 0.659, "Wolbachia per cell robust z, rep 3": -0.0479}
{"gene knocked down": "CG13117", "amplicon": "DRSC02215", "Wolbachia per cell robust z, rep 1": -0.0521, "Wolbachia per cell robust z, rep 2": 0.653, "Wolbachia per cell robust z, rep 3": -0.561}
{"gene knocked down": "CG13117", "amplicon": "DRSC26983", "Wolbachia per cell robust z, rep 1": -7.14, "Wolbachia per cell robust z, rep 2": 0.457, "Wolbachia per cell robust z, rep 3": -0.401}
